Experimental findings from ChEMBL document CHEMBL1201862, “PubChem BioAssay data set” (2004) are described below.

Some of the results follow. Only a part of the results of these assays is listed, not drawn at random. Calls of active or inactive are those of the source. No cut-off for these calls is given here.

The target of this assay is Nonstructural protein 1 (Influenza A virus) (UniProt Q194T2). As to the kind of experiment: qHTS Assay for Inhibitors of Influenza NS1 Protein Function. The assay is classed as functional. The following applies: Influenza A virus (A/WSN/1933(H1N1)).
With `O=[N+]([O-])c1ccc2nc3c([N+](=O)[O-])cc([N+](=O)[O-])cc3c(O)c2c1`, the Potency entry was “inactive”.
Under `O=[N+]([O-])c1cccc2[nH]nnc12` stands “inactive”; under `C[C@@H](O)CC(C)(C)N.Oc1c(Cl)c(Cl)c(Cl)c(Cl)c1Cl`, “inactive”.
The same measure for `C=C(C)CNCC(=C)C.Oc1c(Cl)c(Cl)c(Cl)c(Cl)c1Cl`: “inactive”.
Regarding `Cc1c2no[n+]([O-])c2c(C)[n+]([O-])[n+]1[O-]`, the Potency result was “inactive”.
The same measure for `O=[As](O)(c1cccs1)c1cccs1`: “inactive”.
Under `O=P(Nc1nccs1)(c1ccccc1)c1nc2ccccc2s1` (stereo not drawn) stands “inactive”; under `O=[N+]([O-])c1cc([N+](=O)[O-])c(-c2cc[nH]n2)s1`, “inactive”.
The same measure for `O=[N+]([O-])c1ccc(O)c(/C=N/Nc2ccc([N+](=O)[O-])cc2[N+](=O)[O-])c1`: “inactive”.
Turning to `CC(=O)NC(SC(=S)N(C)C)C(Cl)(Cl)Cl` (stereo not drawn), the Potency result is “inactive”.
The same measure for `CC1CCN(C(=O)Oc2c(Cl)cc(Cl)c3cccnc23)CC1`: “inactive”.
As to `NCC(O)CN.Oc1c(Cl)c(Cl)c(Cl)c(Cl)c1Cl`, the Potency entry was “inactive”.
For `CCc1nc2c([nH]1)c1no[n+]([O-])c1c1no[n+]([O-])c21`, the Potency result is “inactive”.
